Measured values from several laboratories, pooled; numbers as filed in NIAID ChemDB.

Common to all: whole-cell or culture tests; species: HIV-1

ECn is the concentration giving n% inhibition of infection, replication or growth. Two numbers with a dash give a range or band. An empty or dashed field is not shown. Conditions beyond the fields shown may differ between rows.

compound	strain	mutations	method	endpoint	conditions	cells	value
COc1cccc(N2C(=O)CSC2c2c(F)cccc2F)c1	IIIB	-	cytopathic effect	EC50	-	MT-4	11.79 µM
C=C1CN(S(=O)(=O)c2ccc(C)cc2)CCCN(C(=O)OCC)CCCN(S(=O)(=O)c2ccc(C)cc2)C1	NL4-3	-	p24	EC50	-	MT-4	27.2 µM
O=c1nc(NO)c(CCCl)cn1[C@H]1C[C@H](O)[C@@H](CO)O1	IIIB	-	-	EC50	-	MT-4	>300 µM
COc1cc(Cc2cnc(/N=C3\C(=O)N(CN4CCN(c5ccc(Cl)cc5)CC4)c4ccc(F)cc43)nc2N)cc(OC)c1OC	IIIB	-	cytopathic effect / MTT	EC50	-	MT-4	36.2 µg/mL
O=C(Cc1cn([C@H]2C=C[C@@H](CO)O2)c(=O)[nH]c1=O)NCCCCCCCCCCNC(=O)c1c2ccccc2nc2ccccc12	LAI	-	RT activity	EC50	-	CEM	>10 µM
Fc1cccc(F)c1CCNC(=S)Nc1ccc(Br)c(Cl)n1	IIIB	-	cytopathic effect / MTT	EC50	-	MT-4	0.0017 µg/mL
COC[C@@H](c1ccc(C(F)(F)F)cc1)N1CCN(C2(C)CCN(C(=O)c3c(C)ncnc3C)CC2)C[C@@H]1C	R14/S	G514V	-	EC50	-	PBMC	0.00025 µM
COc1ccc(-c2nnsc2SCC(=O)Nc2ccccc2F)cc1	IIIB	-	MTT	EC50	-	MT-4	>333 µM
O=C1CSC(c2c(Cl)cccc2Cl)N1c1cccc([N+](=O)[O-])c1	IIIB	-	cytopathic effect	EC50	-	MT-4	0.73 µM
O=C(OC[C@H]1O[C@@H](OC(=O)c2cc(OS(=O)(=O)O)c(OS(=O)(=O)O)c(OS(=O)(=O)O)c2)[C@H](OC(=O)c2cc(OS(=O)(=O)O)c(OS(=O)(=O)O)c(OS(=O)(=O)O)c2)[C@@H](OC(=O)c2cc(OS(=O)(=O)O)c(OS(=O)(=O)O)c(OS(=O)(=O)O)c2)[C@@H]1OC(=O)c1cc(OS(=O)(=O)O)c(OS(=O)(=O)O)c(OS(=O)(=O)O)c1)c1cc(OS(=O)(=O)O)c(OS(=O)(=O)O)c(OS(=O)(=O)O)c1	IIIB	-	p24	EC50	12 d	PBL	2.55 µg/mL
C[C@H]1CO[C@@H]2Cn3cc(C(=O)NCc4ccc(F)cc4F)c(=O)c(O)c3C(=O)N12	-	-	luciferase	EC50	-	HOS	<0.004 µM
Fc1cccc(F)c1CCNC(=S)Nc1ccc(Br)c(Br)n1	IIIB	-	cytopathic effect / MTT	EC50	-	MT-4	0.0028 µg/mL
C=CSC(NC(=O)[C@H](Cc1ccccc1)NS(=O)(=O)N1CCOCC1)C(=O)N[C@@H](CC1CCCCC1)[C@@H](O)C[C@H](C(=O)NCCCC)C(C)C	IIIB	-	cytopathic effect / XTT	EC50	-	MT-2	>13 µM
O=c1nc2c(cn1[C@@H]1O[C@H](CO)[C@@H](O)[C@H]1O)CON2	IIIB	-	-	EC50	-	MT-4	>300 µM
COC(=O)[C@H](C)NP(=O)(OC[C@@H]1C=C[C@H](n2cc(CC(=O)NCCCCCCCCCCCCNC(=O)C(F)(F)F)c(=O)[nH]c2=O)O1)Oc1ccccc1	IIIB	-	-	EC50	-	MT-4	>10 µM
COc1cc(CN2C[C@H](Cc3ccccc3)N(C[C@@H](O)C[C@@H](Cc3ccccc3)C(=O)N[C@H]3c4ccccc4C[C@H]3O)C2=O)cc(OC)c1OC	-	-	-	EC50	-	MT-4 + MT4	2.2–10 µM
C=C1CN(S(=O)(=O)c2ccc(C)cc2)CCCN(Cc2ccccn2)CCCN(S(=O)(=O)c2ccc(C)cc2)C1	NL4-3	-	p24	EC50	-	MT-4	>75 µM
O=C1CSC(c2c(Cl)cccc2Cl)N1c1ccccc1	IIIB	-	cytopathic effect	EC50	-	MT-4	2.3 µM
NC1=NS(=O)(=O)N(COCCO)C=C1	-	-	cytopathic effect / MTT	EC50	-	MT-4	>400 µg/mL
COC(=O)Cc1cn([C@@H]2C=C[C@H](CO)O2)c(=O)[nH]c1=O	IIIB	-	-	EC50	-	MT-4	>100 µM
C=C1CN(S(=O)(=O)c2ccc(C)cc2)CCCN(C(C)CC)CCCN(S(=O)(=O)c2ccc(C)cc2)C1	NL4-3	-	p24	EC50	-	MT-4	3.52 µM
C=CCC1CCn2c(=S)[nH]c3cccc(c32)C1	-	-	-	EC50	-	-	1–2 µM
CS(=O)(=O)c1ccc(CN2C[C@H](Cc3ccccc3)N(C[C@@H](O)C[C@@H](Cc3ccccc3)C(=O)N[C@H]3c4ccccc4C[C@H]3O)C2=O)cc1	-	-	-	EC50	-	MT-4 + MT4	2.2–10 µM
O=C1CSC(c2c(Cl)cccc2Cl)N1c1cccc(Br)c1	IIIB	-	cytopathic effect	EC50	-	MT-4	0.62 µM
COc1cc(Cc2cnc(/N=C3\C(=O)N(CN4CCCC4)c4ccc(F)cc43)nc2N)cc(OC)c1OC	-	-	cytopathic effect / XTT	EC50	-	CEM	>121 µg/mL
C=C1CN(S(=O)(=O)c2ccc(C)cc2)CCCN(CC(C)C)CCCN(S(=O)(=O)c2ccc(C)cc2)C1	NL4-3	-	p24	EC50	-	MT-4	19.3 µM
COc1cc([C@H]2c3c(cc(OC)c(OC)c3OC)C[C@H]3CSC[C@@H]32)cc(OC)c1OC	IIIB	-	p24	EC50	-	H9	0.15 µM
COc1cc(Br)cnc1NC(=S)NCCc1c(F)cccc1F	IIIB	-	cytopathic effect / MTT	EC50	-	MT-4	2.53 µg/mL
COc1cc([C@H]2c3c(cc4c(c3OC)OCO4)C[C@H]3CSC[C@@H]32)cc(C)c1OC	IIIB	-	cytopathic effect / MTT	EC50	-	MT-4	5.1 µM
C=C1CN(S(=O)(=O)c2ccc(C)cc2)CCCN(CC2CC=CCC2)CCCN(S(=O)(=O)c2ccc(C)cc2)C1	NL4-3	-	p24	EC50	-	MT-4	0.6 µM
COc1cc(Cc2cnc(/N=C3\C(=O)N(CN4CCN(c5cc6c(cc5F)c(=O)c(C(=O)O)cn6C5CC5)CC4)c4ccc(F)cc43)nc2N)cc(OC)c1OC	IIIB	-	cytopathic effect / MTT	EC50	-	MT-4	17.9 µg/mL
CN1OCc2cn([C@@H]3O[C@H](CO)[C@H]4OC(C)(C)O[C@H]43)c(=O)nc21	IIIB	-	-	EC50	-	MT-4	>300 µM
COc1c2c(cc3c1[C@H](c1ccc(O)c(Oc4ccccc4)c1)[C@H]1C(=O)OC[C@@H]1C3)OCO2	IIIB	-	cytopathic effect / MTT	EC50	-	MT-4	5.06 µM
Nc1ccn([C@H]2CC[C@@H](CO)O2)c(=O)n1	-	-	-	EC80	-	MT-4	9 µM
O=C(NCc1c(F)cc(F)cc1F)c1cn2c(c(O)c1=O)C(=O)N1[C@H]3CC[C@H](C3)O[C@@H]1C2	-	+G insertion (GGGGAGT)	luciferase	EC50	-	HOS	<0.001 µM
O=C1C=CN(COCc2ccccc2)S(=O)(=O)N1COCc1ccccc1	-	-	cytopathic effect / MTT	EC50	-	MT-4	>400 µg/mL
CC(O)c1nc(=O)n([C@@H]2O[C@H](CO)[C@H]3OC(C)(C)O[C@H]32)cc1CO	IIIB	-	-	EC50	-	MT-4	>300 µM
COc1cc2ccnc(CN(CCCCN)Cc3ncccc3C)c2cc1OC	-	-	flow cytometry	EC50	-	Jurkat cells	0.0032 µM
COc1cccnc1NC(=S)NCCc1c(F)cccc1F	IIIB	-	cytopathic effect / MTT	EC50	-	MT-4	>2.75 µg/mL
Cc1cn([C@H]2C[C@H](N=[N+]=[N-])[C@@H](CO)O2)c(=O)[nH]c1=O	LAI	-	RT activity	EC50	-	CEM	0.0021 µM
CC1=CC(=O)NS(=O)(=O)N1COCc1ccccc1	-	-	cytopathic effect / MTT	EC50	-	MT-4	>400 µg/mL
CCOC(=O)C1=C2NC(=O)N([C@H]3C[C@H](N=[N+]=[N-])[C@@H](CO)O3)C=C2COC1=O	IIIB	-	-	EC50	-	MT-4	>300 µM
Cc1ccc(C)n1-c1ccc(C(=O)O)c(O)c1	93BR020 X4R5 CLADE F	-	luciferase / cell fusion	EC90	-	PBMC/5.25M7	29.42 µM
CCCc1c(Cc2cc(C)cc(C)c2)n(COC/C(C)=C/c2ccccc2)c(=O)[nH]c1=O	NNRTI-resistant (RT K103N Y181C) A17	RT-K103N Y181C	cytopathic effect / MTT	EC50	-	MT-4	>100 µM
C=C1CN(S(=O)(=O)c2ccc(C)cc2)CCCN(CCC)CCCN(S(=O)(=O)c2ccc(C)cc2)C1	NL4-3	-	p24	EC50	-	MT-4	2.39 µM
COc1cccc(N2C(=O)CSC2c2c(Cl)cccc2Cl)c1	IIIB	-	cytopathic effect	EC50	-	MT-4	1.41 µM
O=C1C=CN(COCc2ccccc2)S(=O)(=O)N1	-	-	cytopathic effect / MTT	EC50	-	MT-4	>400 µg/mL
C=Cc1nc2c(N)ncnc2n1[C@H]1CC[C@@H](CO)O1	-	-	cytopathic effect	EC50	-	CEM	>20 µg/mL
Nc1c(C(=O)NCc2ccc(F)cc2F)c(=O)n(O)c2ncc(CCCCCO)cc12	-	R263K	luciferase / single cycle	EC50	pseudotyped	HOS	2.6 µM
CC(C)(C)[Si](C)(C)CCOCN1C=CC(=O)N(COCC[Si](C)(C)C(C)(C)C)S1(=O)=O	-	-	cytopathic effect / MTT	EC50	-	MT-4	>400 µg/mL
COc1ccc([C@H]2c3c(cc4c(c3OC)OCO4)C[C@H]3CSC[C@@H]32)cc1OCc1ccccc1	IIIB	-	cytopathic effect / MTT	EC50	-	MT-4	4.78 µM
Cc1cccnc1CN(CCCCN)Cc1ccccn1	-	-	entry / luminescence	EC50	-	U87.CD4.CXCR4	0.18 µM
COC(=O)[C@H](C)NP(=O)(OC[C@@H]1C=C[C@H](n2cc(CC(=O)NCCCCCCCCCCNC(=O)C(F)(F)F)c(=O)[nH]c2=O)O1)Oc1ccccc1	LAI	-	RT activity	EC50	-	CEM	>10 µM
O=C(N[C@H]1c2ccccc2C[C@H]1O)[C@H](Cc1ccccc1)C[C@H](O)CN1C(=O)N(Cc2cccnc2)C[C@@H]1Cc1ccccc1	-	-	-	EC50	-	MT-4 + MT4	2.2–10 µM
Cc1cccnc1CN(CCCCN)Cc1nccc2ccccc12	-	-	flow cytometry	EC50	-	Jurkat cells	0.026 µM
CCc1c(Cc2cc(C)cc(C)c2)n(COC/C=C/c2ccccc2)c(=O)[nH]c1=O	IIIB	-	cytopathic effect / MTT	EC50	-	MT-4	0.003 µM
Cc1ccc(NC(=O)CN2CCN(Cc3nc(-c4ccc(F)cc4)no3)CC2)cc1	93BR020	-	RT activity	EC50	-	PBMC	13 µM
CCc1c(Cc2cc(C)cc(C)c2)n(COCC2CC=CCC2)c(=O)[nH]c1=O	IIIB	-	cytopathic effect / MTT	EC50	-	MT-4	0.02 µM
Cc1cccc(N2C(=O)CSC2c2c(Cl)cccc2Cl)c1	IIIB	-	cytopathic effect	EC50	-	MT-4	0.08 µM
COc1cc(Cc2cnc(/N=C3\C(=O)N(CN4CCC(C)CC4)c4ccc(F)cc43)nc2N)cc(OC)c1OC	IIIB	-	cytopathic effect / MTT	EC50	-	MT-4	>69.6 µg/mL
NC1=NS(=O)(=O)N(COCc2ccccc2)C=C1	-	-	cytopathic effect / MTT	EC50	-	MT-4	>400 µg/mL
O=C1CSC(c2c(F)cccc2F)N1c1cccc(Br)c1	IIIB	-	cytopathic effect	EC50	-	MT-4	1.32 µM
COC(=O)Cc1cn([C@H]2C=C[C@@H](COP(=O)(N[C@@H](C)C(=O)OC)Oc3ccccc3)O2)c(=O)[nH]c1=O	LAI	-	RT activity	EC50	-	CEM	100 µM
COc1cccc(N2CCN(CN3C(=O)/C(=N\c4ncc(Cc5cc(OC)c(OC)c(OC)c5)c(N)n4)c4cc(F)ccc43)CC2)c1	IIIB	-	cytopathic effect / MTT	EC50	-	MT-4	>81.6 µg/mL
COc1cc2c(cc1Cc1cccc(Cl)c1F)c(=O)c(C(=O)O)cn2[C@H](CO)C(C)C	-	AGC (GGGAGC)	luciferase	EC50	-	HOS	<0.003 µM
C=C1CN(S(=O)(=O)c2ccc(Br)cc2)CCCN(Cc2ccccc2)CCCN(S(=O)(=O)c2ccc(Br)cc2)C1	NL4-3	-	p24	EC50	-	MT-4	1.84 µM
Cc1cn([C@H]2C[C@H](N=[N+]=[N-])[C@@H](CO)O2)c(=O)[nH]c1=O	KM018	-	p24 / ELISA	EC50	-	PBMC	0.00917 µM
O=c1[nH]c(=O)n([C@H]2C=C[C@@H](CO)O2)cc1CCO	IIIB	-	-	EC50	-	MT-4	>1 µM
CCCc1c(Cc2cc(C)cc(C)c2)n(COC/C=C/c2ccccc2)c(=O)[nH]c1=O	NNRTI-resistant (RT K103N Y181C) A17	RT-K103N Y181C	cytopathic effect / MTT	EC50	-	MT-4	>100 µM
COC(=O)Cc1cn([C@H]2C=C[C@@H](CO)O2)c(=O)[nH]c1=O	IIIB	-	-	EC50	-	MT-4	>1000 µM
Nc1c(C(=O)NCc2ccc(F)cc2F)c(=O)n(O)c2ncc(CCS(=O)(=O)CCN3CCOCC3)cc12	-	+G insertion (GGGGAGT)	luciferase	EC50	-	HOS	0.1239 µM
COC(=O)[C@H](C)NP(=O)(OC[C@@H]1C=C[C@H](n2cc(CCCNC(=O)C(F)(F)F)c(=O)[nH]c2=O)O1)Oc1ccccc1	IIIB	-	-	EC50	-	MT-4	120 µM
[N-]=[N+]=N[C@H]1C[C@H](n2cc3c(nc2=O)NOCC3)O[C@@H]1CO	IIIB	-	-	EC50	-	MT-4	200 µM